Measurements published in patent EP2450379B1 (Crucell Holland B.V., dated 2015).
Where a chain is given by its changes, count along the chain named.

B1: CR6262 (antibody, V domains shown)
VH: QVQLQQSGAEVKKPGSSVKVSCKVSGVIFSGSAISWVRQAPGQGLEWMGGISPLFGTTNYAQKFQGRVTITADQSTNTTYMEVNSLRYEDTAVYFCARGPKYYSEYMDVWGKGTTVTVSS
VL: DIQMTQSPSSLSASVGDRVTITCRASQGISSYLAWYQQKPGKVPTLLIYDASTLRSGVPSRFSGSGSATDFTLTISSLQPEDVATYYCQRYNSAPPITFGQGTRLEIKR
notes: human IgG1
B2: CR6329 (antibody, V domains shown)
VH: EVQLVQSGAEVKKPGSSVKVSCKASGGIFRSNSISWVRQAPGQGLEWMGGIFALFGTTDYAQKFQGRVTITADESSTTVYLELSSLTSEDTAVYYCARGSGYTTRNYFDYWGQGTLVTVSS
VL: EIVLTQSPGTLSLSPGERATLSCRASQSVSSNYLGWYQQKPGQAPRLLIYGASSRASGIPDRFSGGGSGTDFTLTISRLEPEDFAVYYCQQYGSSPLTFGGGTKVEIKR
notes: human IgG1
B3: CR6344 (antibody, V domains shown)
VH: QVQLVQSGAEVKKPGSSVRVSCKASGSIFRNYAMSWVRQAPGQGLEWMGGIIAIFGTPKYAQKFQGRVTITADESTSTVYMELSGLRSEDTAMYYCARIPHYNFGSGSYFDYWGQGTLVTVSS
VL: TVLTQPPSVSGAPGQRVTISCTGSSSNIGAGYDVHWYQQLPGTAPKLLIYGNSNRPSGVPDRFSGSKSGTSATLGITGLQTGDEADYYCGTWDSSLSAYVFGTGTKVTVLG
notes: human IgG1
B4: CR6342 (antibody, V domains shown)
VH: QVQLVQSGAEVKKPGSSVKVSCKASGGFFSSYAISWVRQAPGQGLEWMGGVIPIFRTANYAQNFQGRVTITADEFTSYMELSSLRSDDTAVYYCARLNYHDSGTYYNAPRGWFDPWGQGTLVTVSS
VL: DIQMTQSPDSLAVSLGEKATINCKSSQSILNSSNNKNYLAWYQQKPGQPPKLLIYWASTRESGVPDRFSGSGSGTDFTLTISSLQAEDVAVYYCQQYYSSPPTFGQGTKVEIKR
notes: human IgG1
B5: CR6272 (antibody, V domains shown)
VH: QMQLVQSGAEVKKPGSSVKVSCKASGGTFSSYAITWVRQAPGQGLEWMGGIIGMFGSTNYAQNFQGRVTITADESTSTAYMELSSLRSEDTAVYYCARSTGYYPAYLHHWGQGTLVTVSS
VL: QSALTQPRSVSGSPGQSVTISCTGTSSDVGGYNYVSWYQQHPGKAPKLMIYDVSKRPSGVPDRFSGSKSGNTASLTISGLQAEDEADYYCSSYTSSSTHVFGTGTKVTVLG
notes: human IgG1
B6: CR6325 (antibody, V domains shown)
VH: EVQLVESGAEVKKPGSSVKVSCKASGGTFSFYSMSWVRQAPGQGLEWMGGIIPMFGTTNYAQKFQGRVTITAVESTSTAYMEVSSLRSEDTAVYYCARGDKGIYYYYMDVWGKGTTVTVSS
VL: B5 VL with R8A, V18I, D52E, K55N, P61S, D62N, H99L
notes: human IgG1
B7: CR6323 (antibody, V domains shown)
VH: B5 VH with Q1E, M2V, Q6E, A33G, T35S, G50D, V68L, T100S, H108P
VL: not shown
notes: human IgG1
B8: CR6257 (antibody, V domains shown)
VH: QVQLVQSGAEVKKPGSSVKVSCKASGGPFRSYAISWVRQAPGQGPEWMGGIIPIFGTTKYAPKFQGRVTITADDFAGTVYMELSSLRSEDTAMYYCAKHMGYQVRETMDVWGKGTTVTVSS
VL: B5 VL with R8A, S9A, V18I, D52E, K55N, P61S, D62N, H99Y
notes: human IgG1
B9: CR6334 (antibody, V domains shown)
VH: EVQLVETGAEVKKPGSSVKVPCKSSGSPFRSNAVSWVRQAPGQGLEWVGGILGVFGSPSYAQKFQGRVTITADESTNTVHMELRGLRSEDTAVYYCARGPTYYYSYMDVWGKGTTVTVSS
VL: SYVLTQPPSESVAPGQTARITCGGNNIGRNSVHWYQQKPGQAPVLVVYDDSDRPSGIPERFSGSKSGNTATLIISRVEVGDEADYYCQVWHSSSDHYVFGTGTKVTVLG
notes: human IgG1
B10: CR6343 (antibody, V domains shown)
VH: QVQLVQSGAEVKKPGSSVKVSCKASGVTFSYYAMSWVRQAPGQGLEWMGGISPMFGTTTYAQKFQGRVTITADDSTSTAYMEVRSLRSEDTAVYYCARSSNYYDSVYDYWGQGTLVTVSS
VL: B9 VL with S1Q, Y2S, L4V, N25H, R29S, D50N, K65N, I73T, V79A, H91G
notes: human IgG1
B11: CR6332 (antibody, V domains shown)
VH: QVQLVQSGAEVKKPGSSVKVSCKASGGPFRNFAINWVRQAPGQGLEWMGGIIAVFGTTKYAHKFQGRVTITADDSTNTAYMELGSLKSEDTAVYYCARGPHYYSSYMDVWGEGTTVTVSS
VL: DIQLTQSPSSLSASVGDRVTITCRASQGISTYLAWYQQKPGKVPKLLIYAASTLQSGVPSRFSGSGSGTDFTLTISSLQPEDVATYYCQKYNSAPSFGPGTKVDIKR
notes: human IgG1
B12: CR6328 (antibody, V domains shown)
VH: EVQLVESGAEVKKPGSSVKVSCKASGHIFSGYAISWVRQAPGQGLEWMGGIIPIFGTTNYAQKFQGRVTITADQSTSTAYMDLSNLRSEDTAVYYCARVKDGYCTLTSCPVGWYFDLWGRGTLVTVSS
VL: not shown
notes: human IgG1
B13: CR6268 (antibody, V domains shown)
VH: QVQLVQSGAEVKKPGSSVKVSCKASGGTFSSYAISWVRQAPGQGLEWMGGIMGMFGTTNYAQKFQGRVTITADEFTSAAYMELRSLRSEDTAVYYCARSSGYYPEYFQDWGQGTLVTVSS
VL: QSVLTQPPSESVSPGQTASVTCSGHKLGDKYVSWYQQKPGQSPVLLIYQDNRRPSGIPERFIGSNSGNTATLTISGTQALDEADYYCQAWDSSTAVFGGGTKLTVLG
notes: human IgG1
B14: CR6336 (antibody, V domains shown)
VH: B13 VH with V2M, M52F, T58A, R84S, R87G, V93M, E105Q
VL: B2 VL with L4M, E17Q, N32S, G35A, I49M, S57T, G66S, P96S, V105L
notes: human IgG1
B15: CR6307 (antibody, V domains shown)
VH: QVQLVQSGGGLVKPGGSLRLSCAASGFTFSSYSMNWVRQAPGKGLEWVSSISSSSSYIYYVDSVKGRFTISRDNAKNSLYLQMNSLRAEDTAVYYCARGGGSYGAYEGFDYWGQGTLVTVSS
VL: EIVLTQSPGTLSLSPGERATLSCRASQRVSSYLAWYQQKPGQAPRLLIYGASTRAAGIPDRFSGSGSGTDFTLTISRLEPEDSAVYYCQQYGRTPLTFGGGTKVEIKR
notes: human IgG1

Experiments:
Assay in all cases: ELISA, IgG 5 µg/ml
[1] = target: recombinant HA, subtype H9 (A/Hong Kong/1073/99 (H9N2)) (influenza A virus A/Hong Kong/1073/99 …)
[2] = target: recombinant HA, subtype H7 (A/Netherlands/219/03 (H7N7)) (influenza A virus A/Netherlands/219/03 …)
[3] = target: recombinant HA, subtype H3 (A/Wyoming/3/2003(H3N2)) (influenza A virus A/Wyoming/3/2003 …)

Binder	OD 492nm [1] [OD 492nm]	OD 492nm [2] [OD 492nm]	OD 492nm [3] [OD 492nm]
B1	1.93	0.17	0.09
B2	2.16	0.17	0.08
B3	2.15	0.18	0.09
B4	2.13	0.17	0.09
B5	0.96	0.15	0.07
B6	2.04	0.17	0.07
B7	2.27	0.15	0.07
B8	2.06	0.16	0.08
B9	1.82	0.15	0.07
B10	1.88	0.15	0.07
B11	2.11	0.26	0.15
B12	2.38	0.16	0.07
B13	2.16	0.15	0.08
B14	2.02	0.18	0.1
B15	0.17	0.22	0.11
